Assays:
[1] = system: HIV strain RT-MDR (74V, 41L, 106A, 215Y); conditions: read-out: IC50 p24, PBMNC
[2] = system: HIV strain HTLV-IIIB (WT); test: p24 production in PBMNC infected with HTLV-IIIB; type: cell-based, HIV-1; conditions: read-out: IC50 p24
[3] = biological target: purified recombinant HIV RT (Human immunodeficiency virus type 1 group M subtype B, UniProt P04585); test: Purified RT assay, cell-free Quan-T-RT system (scintillation proximity); type: biochemical; conditions: read-out: RRT (IC50[rRT])

| SMILES | IC50 [1] | IC50 [2] | IC50 [3] |
| --- | --- | --- | --- |
| S=C(NCCN1CCOCC1)Nc1ccc(Br)cn1 | > 1 µM | 3.8 µM | > 10 µM |
| S=C(NCCC1=CCCCC1)Nc1ccc(Cl)cn1 | – | 0.003 µM | 3.7 µM |
| S=C(NCCN1CCCCC1)Nc1ccc(Br)cn1 | > 1 µM | < 0.001 µM | 5.8 µM |

Source: US7186736B1, “NNI for treatment of multi-drug resistant HIV” (Parker Hughes Institute, priority 1999, dated 2007)
